Results deposited as PubChem BioAssay AID1224833 (University of Georgia, 2016)
Here is an unselected part of about 12,000 reagents. About 5,600 of all reagents (46%) count as active. 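Active calls cover z-scores past 1 in both directions, so they include lowered as well as raised rotavirus replication.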

Screen: 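Human genes whose knock-down alters rotavirus replication in monkey cells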 (primary screen)
Cells: monkey MA104 kidney cells
Reagent: siRNA pool against human genes, 50 nM
Timing: 48 h knock-down before infection; read 24 h after infection
Challenge: infection with rotavirus strain RV3 two days after transfection; infectious dose for this stage not given
Measured: 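Rotavirus antigen per well by fluorescent immunoassay, normalised to non-targeting control wells on each plate and given as a standard z-score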
Scale: z-score vs non-targeting control: higher = more rotavirus replication than with non-targeting control
Rule for the call: In these data the active calls have z-score vs non-targeting control at about -1 or lower, or at about 1 or higher
Meaning of the calls: active = z-score beyond 1 either way; inactive = z-score within 1 of zero

Silencing of SLC45A1 came out at: z-score vs non-targeting control 0.547; inactive.
Against REXO5, the entry reads z-score vs non-targeting control 0.669; inactive.
Depletion of MRPL10 came out at: z-score vs non-targeting control 0.0805; inactive.
For LILRA1, the values are z-score vs non-targeting control -1.07; active.
INIP scored z-score vs non-targeting control -0.489; inactive.
ZPBP2 gave z-score vs non-targeting control -1.05; active.
Against OR6N1 the deposit lists z-score vs non-targeting control -2.14; active.
Silencing of CDS1 came out at: z-score vs non-targeting control -0.965; inactive.
Silencing of GPR180 came out at: z-score vs non-targeting control 1.14; active.
Silencing of MED14 gave: z-score vs non-targeting control 1.63; active.
Knock-down of VARS2 resulted in: z-score vs non-targeting control 0.23; inactive.
With knock-down of BEND2, the screen gave z-score vs non-targeting control 0.0029; inactive.
Depletion of KRTDAP came out at: z-score vs non-targeting control -0.0737; inactive.
For TNFSF18, the values are z-score vs non-targeting control -0.335; inactive.
After knock-down of CEMP1 the results were z-score vs non-targeting control -0.676; inactive.
Depletion of LRIG1 gave: z-score vs non-targeting control -0.175; inactive.
For TMEM43, the entry reads z-score vs non-targeting control -1.18; active.
Silencing of COL11A1 gave: z-score vs non-targeting control -0.264; inactive.
Depletion of PEX39 came out at: z-score vs non-targeting control 1.87; active.
For DCPH1, the entry reads z-score vs non-targeting control 0.575; inactive.
Against MRPL30 the deposit lists z-score vs non-targeting control -1.11; active.
TIMM17B scored z-score vs non-targeting control 1.66; active.
After knock-down of ZNF234 the results were z-score vs non-targeting control 0.0925; inactive.
TMEM14A showed z-score vs non-targeting control -1.58; active.
With knock-down of OSGEP, the record shows z-score vs non-targeting control -1.4; active.
For ZNF461, the entry reads z-score vs non-targeting control 2.09; active.
Against MESP1, the values are z-score vs non-targeting control -0.701; inactive.
NPR3 showed z-score vs non-targeting control -0.472; inactive.
Knock-down of COMMD7 came out at: z-score vs non-targeting control -0.608; inactive.
For PROCR the deposit lists z-score vs non-targeting control -1.35; active.
Knock-down of HBEGF resulted in: z-score vs non-targeting control -1.04; active.
After knock-down of AMER2, the record shows z-score vs non-targeting control -1.08; active.
After knock-down of IGF2BP1, the screen gave z-score vs non-targeting control -0.185; inactive.
IFNA13 scored z-score vs non-targeting control 0.421; inactive.
For SRSF5, the values are z-score vs non-targeting control 1.73; active.
Against MME the deposit lists z-score vs non-targeting control -0.638; inactive.
UTP23 showed z-score vs non-targeting control -1.82; active.
Depletion of TMEM177 gave: z-score vs non-targeting control -1.63; active.
For ENTPD2, the entry reads z-score vs non-targeting control -1.58; active.
RCAN3 gave z-score vs non-targeting control -1.68; active.
Knock-down of EMP1 gave: z-score vs non-targeting control -1.97; active.
Knock-down of SACK1C gave: z-score vs non-targeting control 0.209; inactive.
For VN1R5 the deposit lists z-score vs non-targeting control -0.971; inactive.
Knock-down of HSPA12B resulted in: z-score vs non-targeting control 0.611; inactive.
OR6C75 showed z-score vs non-targeting control -1.55; active.
For INHA, the values are z-score vs non-targeting control -0.743; inactive.
Depletion of DPEP3 gave: z-score vs non-targeting control 2.9; active.
Depletion of COL4A4 came out at: z-score vs non-targeting control 1.1; active.
HLA-E gave z-score vs non-targeting control 2.11; active.
With knock-down of KIF5A the results were z-score vs non-targeting control -0.999; inactive.
Against DDN, the values are z-score vs non-targeting control 0.334; inactive.
SALL1 showed z-score vs non-targeting control -1.48; active.
After knock-down of PPP1R18, the screen gave z-score vs non-targeting control 0.927; inactive.
After knock-down of RAB3C, the screen gave z-score vs non-targeting control -0.802; inactive.
With knock-down of RLN1, the screen gave z-score vs non-targeting control 1.18; active.
For EI24, the entry reads z-score vs non-targeting control 0.885; inactive.
Against CCNQ, the values are z-score vs non-targeting control 1.45; active.
After knock-down of RDH11, the record shows z-score vs non-targeting control -1.59; active.
Knock-down of OR4D10 gave: z-score vs non-targeting control -0.647; inactive.
For TRMT2A, the entry reads z-score vs non-targeting control -0.508; inactive.

Ordered by “z-score vs non-targeting control” (highest first): some entries from above.
CCNQ → z-score vs non-targeting control: 1.45; call: active
RLN1 → z-score vs non-targeting control: 1.18; call: active
PPP1R18 → z-score vs non-targeting control: 0.927; call: inactive
EI24 → z-score vs non-targeting control: 0.885; call: inactive
RAB3C → z-score vs non-targeting control: -0.802; call: inactive
